Experimental findings from US20200339636A1 (CHILDREN S MEDICAL CENTER, published 2020) are described below.

The target of test [1] is sTcdB (TcdB residues 1285-1804), wild type, with C-terminal HA tag (Clostridium difficile, UniProt P18177 1285-1804).
Test [2] addresses Recombinant full length TcdB (C. difficile strain VPI 10463), 6xHis-tagged (Clostridium difficile strain VPI 10463, UniProt P18177 1-2366). Kind of test: BLI, CRD5-Fc pre-mixed with Wnt3A on the biosensor, 1 µM TcdB. For orientation: Biolayer interferometry detects binding as a change in optical thickness at a sensor tip.

B1: FZD4^CRD-Fc (recombinant human, Sino Biologics) (Fc fusion)
chain: FGDEEERRCDPIRISMCQNLGYNVTKMPNLVGHELQTDAELQLTTFTPLIQYGCSSQLQFFLCSVYVPMCTEKINIPIGPCGGMCLSVKRRCEPVLKEFGFAWPESLNCSKFPPQNDHNHMCMEGPGDEEVPLPHKTPIQPGEE
notes: domain: CRD
B1: in test [1], the binding result is given as “binds”.

B2: FZD8^CRD-Fc (recombinant human, R&D Systems) (Fc fusion)
chain: ASAKELACQEITVPLCKGIGYNYTYMPNQFNHDTQDEAGLEVHQFWPLVEIQCSPDLKFFLCSMYTPICLEDYKKPLPPCRSVCERAKAGCAPLMRQYGFAWPDRMRCDRLPEQGNPDTLCMDYNRTDLTT
notes: domain: CRD
With B2, the binding result in test [1] is “binds”.

B3: FZD5^CRD-Fc (recombinant human, Sino Biologics) (Fc fusion, UniProt Q13467 27-167, looked up)
chain: ASKAPVCQEITVPMCRGIGYNLTHMPNQFNHDTQDEAGLEVHQFWPLVEIQCSPDLRFFLCSMYTPICLPDYHKPLPPCRSVCERAKAGCSPLMRQYGFAWPERMSCDRLPVLGRDAEVLCMDYNRSEATTAPPRPFPAKP
notes: domain: CRD; also called CRD5; CRD5-Fc; not shown: Fc tag of the bought protein
For B3, in test [2], the binding result is “binds”.
